This assay addresses M. smegmatis DprE1 Y321C (Mycolicibacterium smegmatis, UniProt A0R607, Y313C). The assay is described as follows: biochemical.

The chains behind the UniProt entries cited, without tags or fusion partners.
UniProt A0R607, whole entry Y313C: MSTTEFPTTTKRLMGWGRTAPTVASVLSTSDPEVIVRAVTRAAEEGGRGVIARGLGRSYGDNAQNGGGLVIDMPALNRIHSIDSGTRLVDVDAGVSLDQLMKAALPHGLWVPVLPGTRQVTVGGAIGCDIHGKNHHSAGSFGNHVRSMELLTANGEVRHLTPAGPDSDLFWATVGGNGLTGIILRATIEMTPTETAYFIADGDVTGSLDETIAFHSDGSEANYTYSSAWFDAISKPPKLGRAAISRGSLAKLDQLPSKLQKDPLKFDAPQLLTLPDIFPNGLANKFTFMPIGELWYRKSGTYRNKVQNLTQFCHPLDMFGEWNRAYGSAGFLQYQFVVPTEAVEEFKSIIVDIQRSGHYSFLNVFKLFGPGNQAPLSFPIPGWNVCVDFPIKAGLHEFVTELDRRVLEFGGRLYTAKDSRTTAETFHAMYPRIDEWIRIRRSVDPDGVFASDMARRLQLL

With `CCOC(=O)NC(=O)c1ccsc1NC(=O)c1nc2ccccc2s1` [TCA1], the half-inhibitory concentration (IC50) (in general, the concentration at which inhibition is half-maximal) came to 240 ± 52 nM.

As to `CCOC(=O)NC(=O)c1ccsc1NC(=O)c1nc2cnccc2s1` [TCA007], the half-maximal inhibitory concentration (IC50) worked out at 130 ± 21 nM.

For the origin of these results see paper PMC5659129, “Determinants of the Inhibition of DprE1 and CYP2C9 by Antitubercular Thiophenes” (Angewandte Chemie (International Ed. in English), 2017).
